Columns and labels:
calf thymus DNA (ctDNA) [1] = experiment: UV-Vis spectrophotometric titration with ctDNA; assay type: binding; conditions: ΔG = -RTlnKb
calf thymus DNA (ctDNA) [2] = experiment: Competitive EthBr-DNA fluorescence binding experiment; conditions: Fluorescent titration, pH 7.4
Procedure: The competitive DNA-silver(I) complex binding experiments were carried out in the buffer (pH 7.4) by maintaining [DNA]/[EthBr] = 5, while increasing the concentration of the complexes 1–3. Each sample solution was scanned in the wavelength range 525–800 nm with an excitation wavelength of 520 nm. The Stern-Volmer constants (Ksv), which represent a measure of the binding propensity of the complexes to DNA, were calculated using the following equation [29]:(2) F0/F=1+Kqτ0complex=1+Ksvcomplex, where F0 and F are the fluorescence intensities in the absence and presence of the complexes, respectively. Kq stands for bimolecular quenching constant and τ0 (10^−8 s) is the lifetime of the fluorophore in the absence of the quencher. The binding constants (KA) and apparent binding sites (n) can be calculated by using the following equation [28]:(3) logF0−F/F=log KA+n logcomplex, where KA stands for the binding constant of the silver(I) complex with ctDNA and n stands for the apparent number of binding sites.

SMILES | ΔG^o (calf thymus DNA (ctDNA) [1]) [kcal/mol] | n (apparent number of binding sites) (calf thymus DNA (ctDNA) [2])
C(=C\c1ccncc1)/c1ccncc1.O=S(=O)([O-])C(F)(F)F.[Ag+] [Complex 3, {[Ag(bpe)]CF3SO3}n] | -7.8 | 0.72
O.O=S(=O)([O-])C(F)(F)F.[Ag+].c1cc(CCc2ccncc2)ccn1.c1cc(CCc2ccncc2)ccn1 [Complex 2, {[Ag(bpa)2]CF3SO3^.H2O}n] | -7.7 | 0.80
O=[N+]([O-])[O-].[Ag+].c1cc(CCc2ccncc2)ccn1 [Complex 1, {[Ag(bpa)]NO3}n] | -7.9 | 1.40
